Pooled drug test results. Numbers come from NIAID ChemDB, via PubChem.

Shared fields: host cell toxicity; endpoint: CC50

Rows are shuffled and stem from different studies. CCn is the concentration with n% toxicity to the cells.

structure	cell line	value
CC(C)OC(=O)C(C)NP(=O)(COCCn1cnc2c(NC3CC3)nc(N)nc21)Oc1ccccc1	HFF	>209 µM
CCCCCCCCCCCCCCCCCCOCCOP1(=O)CO[C@@H](Cn2ccc(N)nc2=O)CO1	HFF	47.8 µM
Nc1nc(N)c2ncn(C[C@@H](CO)OCP(=O)(O)O)c2n1	PHK	>42.5 µg/mL
C[C@@]1(CO)[C@H](O)CC[C@@]2(C)[C@H]1CC[C@H]1C[C@@H]3C[C@@]12CC[C@]3(O)CO	HeLa	0.22 µM
Nc1nc2c(ccn2[C@H]2C[C@H](O)[C@@H](CO)O2)c(=O)[nH]1	VERO E6	>100 µM
Nc1ncnc2c1ncn2[C@H]1[C@H](O)[C@H](O)[C@]2(CO)O[C@H]12	HeLa	8.2 µg/mL
Nc1ncnc2c1ncn2[C@@H]1O[C@H](CO)C[C@H]1O	HeLa	200 µg/mL
Nc1nc2c(nnn2CCOCP(=O)(O)O)c(=O)[nH]1	PHK	6.4 µg/mL
O=c1cnn([C@@H]2O[C@H](CO)[C@@H](O)[C@H]2O)c(=O)[nH]1	VERO	0.9 µg/mL
Nc1ncnc2c1ncn2C[C@H](O)CO	HeLa	>400 µg/mL
CC1=C[C@H]2O[C@@H]3C[C@H]4OC(=O)/C=C\C=C\C(=O)OCC[C@@H](C)[C@H](O)C(=O)OC[C@@]2(CC1)[C@]4(C)[C@]31CO1	VERO	0.0066 µg/mL
Nc1nc(N)c2ncn(C[C@H]3CC[C@@H](CO)C3)c2n1	HeLa	≥400 µg/mL
Nc1ncnc2c1ncn2[C@@H]1C=C(CO)[C@@H](O)[C@H]1O	HeLa	0.17 µg/mL
CCN1CCCCC1C1C2CC3CC(C2)CC1C3	MDCK	143 µM
CNc1nc(N)nc2c1ncn2CCOCP(=O)(O)O	PHK	5 µg/mL
CN(C)c1nc(N)nc2c1ncn2CCOCP(=O)(O)O	HFF	>316 µM
Nc1ncnc2c1ccn2[C@@H]1O[C@H](CSCCC(NC(=O)C(F)(F)F)C(=O)O)[C@@H](O)[C@H]1O	HeLa	>400 µg/mL
NC(=O)N=NC(N)=O	VERO	>200 µM
Nc1ncnc2c1ncn2[C@H]1C[C@@H](O)[C@@H](CO)O1	HeLa	400 µg/mL
NC(=O)c1ncn([C@@H]2O[C@H](CO)[C@@H](O)[C@H]2O)c1O	VERO E6	>200 µg/mL
Nc1nc2c(ncn2C[C@H](CO)OCP(=O)(O)O)c(=O)[nH]1	PHK	34.4 µg/mL
CN1CCCCC1C12CC3CC(CC(C3)C1)C2	MDCK	928 µM
Nc1ncnc2c1ncn2[C@@H]1C=C[C@@H](O)[C@H]1O	VERO E6	>1700 µM
Nc1nc(=O)n([C@H]2O[C@@H](CO)[C@H](O)[C@@H]2O)cc1Cl	VERO 76	>0.25 µM
Nc1nc(N)c2nnn(C[C@H]3CC[C@@H](CO)C3)c2n1	HeLa	400 µg/mL
CC(C)[C@H](NC(=O)OCc1ccccc1)C(=O)N[C@@H](Cc1ccccc1)C(=O)N[C@@H](C)C=O	VERO 76	43 µM
C1CCC(C23CC4CC(CC(C4)C2)C3)NC1	MDCK	978 µM
CN1CCCCC1C1C2CC3CC(C2)CC1C3	MDCK	977 µM
CCCCCCCCCCCCCCCCCCOCCOP(=O)(O)CO[C@H](CO)Cn1ccc(N)nc1=O	HFF	14.3 µM
CC1=CC2O[C@H]3C[C@H]4OC(=O)/C=C\C=C\C(=O)OCC/C(C)=C/C(=O)OCC2(CC1)[C@@]4(C)[C@]31CO1	VERO	0.0082 µg/mL
CC(N)C12CC3CC(CC(C3)C1)C2	MDCK	>1160 µM
CC(C)OC(=O)C(N)CCSC[C@H]1O[C@@H](n2ccc3c(N)ncnc32)[C@H](O)[C@@H]1O	HeLa	100 µg/mL
NC(=O)c1ncn([C@@H]2O[C@H](CO)[C@@H](O)[C@H]2O)n1	LLC-MK2	>100 µg/mL
NC12CC3CC(CC(C3)C1)C2	MDCK	>500 µM
Cc1c(O)cccc1C(=O)N[C@@H](CSc1ccccc1)[C@H](O)CN1C[C@H]2CCCC[C@H]2C[C@H]1C(=O)NC(C)(C)C	VERO	14.5 µM
Nc1ccn(C[C@@H](CO)OCP(=O)(O)O)c(=O)n1	HFF	278.4 µM
O=C(Nc1ccn([C@@H]2O[C@H](CO)C[C@H]2O)c(=O)n1)c1ccccc1	VERO 76	>100 µM
Nc1nccc2c1ncn2[C@@H]1O[C@H](CO)[C@@H](O)[C@H]1O	HeLa	>400 µg/mL
Nc1nc2c(ncn2C[C@@H](CO)OCP(=O)(O)O)c(=O)[nH]1	PHK	7.5 µg/mL
Nc1nccc2c1ncn2[C@@H]1C[C@H](CO)[C@@H](O)[C@H]1O	HeLa	>400 µg/mL
C1CCN(CC2CC2)C(C23CC4CC(CC(C4)C2)C3)C1	MDCK	162 µM
Nc1ncnc2c1ncn2[C@H]1CC[C@@H](CO)O1	VERO E6	>100 µM
Nc1nccc2c1ncn2[C@@H]1C=C[C@@H](O)[C@H]1O	HeLa	5.6 µg/mL
Nc1nccc2c1ncn2[C@@H]1C=C[C@@H](O)[C@H]1O	VERO E6	>1700 µM
C=CCNc1nc(N)nc2c1ncn2CCOCP(=O)(O)O	PHK	0.9 µg/mL
C=CSC[C@H]1O[C@@H](n2cnc3c(N)ncnc32)[C@H](O)[C@@H]1O	VERO	>650 µM
Nc1nccc2c1ncn2C[C@@H](CO)OCP(=O)(O)O	PHK	7.3 µg/mL
CCOC(=O)C(CCSC[C@H]1O[C@@H](n2ccc3c(N)ncnc32)[C@H](O)[C@@H]1O)NC(=O)COC	HeLa	>400 µg/mL

2 of the rows above, restated:

structure,cell line,value
C1CCC(C23CC4CC(CC(C4)C2)C3)NC1,MDCK,978 µM
Nc1ncnc2c1ncn2[C@@H]1C=C(CO)[C@@H](O)[C@H]1O,HeLa,0.17 µg/mL